Measured values from several laboratories, pooled; numbers as filed in NIAID ChemDB.

All rows: toxicity to cultured cells; cells: KB; read-out: CC50

Rows are shuffled and stem from different studies. CCn is the concentration with n% toxicity to the cells.

{"compound": "CCc1nc2c3c(cn([C@@H]4O[C@H](CO)[C@@H](O)[C@H]4O)c3n1)C(N)=NN2C", "result": ">100 µM"}
{"compound": "Nc1nc2c(ncn2COC(CO)CO)c(=O)[nH]1", "result": ">100 µM"}
{"compound": "OCC(CO)OCn1c(Br)nc2c(Cl)c(Cl)ccc21", "result": ">100 µM"}
{"compound": "COC(=O)c1nnn([C@@H]2C(=O)N(C3CCCCC3)[C@@H]2/C=C/c2ccccc2)c1C(=O)OC", "result": ">228 µM"}
{"compound": "CCOC(=O)c1cnc2ccc3c(C)cc(=O)[nH]c3c2c1C", "result": "15 µg/mL"}
{"compound": "O[C@@H]1[C@H](O)[C@@H](CBr)O[C@H]1n1c(Cl)nc2cc(Cl)c(Cl)cc21", "result": "90 µM"}
{"compound": "CN1N=C(N)c2cn([C@@H]3O[C@H](CO)[C@@H](O)[C@H]3O)c3nc(Cl)nc1c23", "result": "33 µM"}
{"compound": "CC(C)Oc1ccc(N2C(=O)CCNC2=S)cc1", "result": ">1 µg/mL"}
{"compound": "COC[C@H]1O[C@@H](n2c(Cl)nc3cc(Cl)c(Cl)cc32)[C@H](OC(C)=O)[C@@H]1OC(C)=O", "result": "80 µM"}
{"compound": "OCCOCn1cnc2c(Cl)c(Cl)ccc21", "result": ">100 µM"}
{"compound": "CCc1c(O)c2c(c(O)c1OC)C(=O)C(OC)CC2", "result": "13.63 µg/mL"}
{"compound": "CCCCOC[C@H]1O[C@@H](n2c(Cl)nc3cc(Cl)c(Cl)cc32)[C@H](OC(C)=O)[C@@H]1OC(C)=O", "result": ">100 µM"}
{"compound": "Nc1ncnc2c1ncn2C=C1CC1CO", "result": "~80 µM"}
{"compound": "C[C@@]1(O)[C@H](O)[C@@H](COP(=O)(O)OP(=O)(O)OP(=O)(O)O)O[C@H]1n1ccc2c(N)ncnc21", "result": ">100 µM"}
{"compound": "O[C@@H]1[C@H](O)[C@@H](CCl)O[C@H]1n1c(Cl)nc2cc(Cl)c(Cl)cc21", "result": "90 µM"}
{"compound": "O=C1[C@@H](n2cc(-c3ccccc3)nn2)[C@@H](/C=C/c2ccccc2)N1c1ccccc1", "result": "91.25 µM"}
{"compound": "OC[C@H]1O[C@@H](n2c(Cl)nc3cc(Cl)c(Cl)cc32)[C@H](O)[C@@H]1O", "result": "200 µM"}
{"compound": "CN(C)c1nc2cc(Cl)c(Cl)cc2n1COCCO", "result": ">100 µM"}
{"compound": "CC(=O)O[C@@H]1[C@H](OC(C)=O)[C@@H](CF)O[C@H]1n1c(Cl)nc2cc(Cl)c(Cl)cc21", "result": "100 µM"}
{"compound": "CCO/N=C/c1ccc(OCCC2CCN(c3ccc(Cl)nn3)CC2)cc1", "result": "7.465 µM"}
{"compound": "OCCSCc1c(Cl)nc2cc(Cl)c(Cl)cn12", "result": ">100 µM"}
{"compound": "OC[C@H]1O[C@@H](n2c(Cl)nc3cc(Cl)c(Cl)cc32)[C@H](O)[C@@H]1O", "result": "210 µM"}
{"compound": "OCC(CO)OCn1cnc2c(Cl)c(Cl)ccc21", "result": ">100 µM"}
{"compound": "CC(C)Nc1nc2cc(Cl)c(Cl)cc2n1[C@H]1O[C@@H](CO)[C@H](O)[C@@H]1O", "result": "65 µM"}
{"compound": "COC(=O)c1nnn([C@@H]2C(=O)N(c3ccc(Cl)cc3)[C@@H]2/C=C/c2ccccc2)c1C(=O)OC", "result": "145 µM"}
{"compound": "OC[C@H]1O[C@@H](n2c(Br)nc3cc(Cl)c(Cl)cc32)[C@H](O)[C@@H]1O", "result": ">100 µM"}
{"compound": "O=C1CCNC(=S)N1c1ccccc1", "result": ">1 µg/mL"}
{"compound": "CNc1nc2cc(Cl)c(Cl)cc2n1COCCO", "result": ">100 µM"}
{"compound": "CCOC(=O)/C(N=Nc1ccc(C(=O)N/N=C\\c2ccc(F)cc2)cc1)=C(\\C)O", "result": ">20 µg/mL"}
{"compound": "OCCOCn1c(SCc2ccccc2)nc2cc(Cl)c(Cl)cc21", "result": "55 µM"}
{"compound": "O[C@H]1[C@@H](O)CO[C@H]1c1c(Cl)nc2cc(Cl)c(Cl)cn12", "result": ">100 µM"}
{"compound": "C=CCOCc1c(Cl)nc2ccc(Cl)cn12", "result": ">100 µM"}
{"compound": "COc1ccc(N2C(=O)CCNC2=S)cc1", "result": ">1 µg/mL"}
{"compound": "CN(C)c1nc2c(Cl)c(Cl)ccc2n1COC(CO)CO", "result": ">100 µM"}
{"compound": "CC(=O)O[C@@H]1[C@H](OC(C)=O)[C@@H](CI)O[C@H]1n1c(Cl)nc2cc(Cl)c(Cl)cc21", "result": "60 µM"}
{"compound": "COCCOCn1cc(C(N)=S)c2c(N)ncnc21", "result": ">100 µM"}
{"compound": "Nc1nc2c(ncn2COC(CO)CO)c(=O)[nH]1", "result": ">100 µM"}
{"compound": "CCCCCCCCN1C(=O)CCNC1=S", "result": "1.8 µg/mL"}
{"compound": "CN(C)c1nc2cc(Cl)c(Cl)cc2n1COC(CO)CO", "result": ">100 µM"}
{"compound": "CC(=O)O[C@@H]1[C@H](OC(C)=O)[C@@H](CBr)O[C@H]1n1c(Cl)nc2cc(Cl)c(Cl)cc21", "result": "60 µM"}
{"compound": "CN1N=C(N)c2cn([C@@H]3O[C@H](COP(=O)(O)O)[C@@H](O)[C@H]3O)c3ncnc1c23", "result": "10 µM"}
{"compound": "Clc1cc2nc(Cl)c(COCc3ccccc3)n2cc1Cl", "result": ">100 µM"}
{"compound": "Cc1ccc(Cn2c(N)c(C#N)c3c(N)ncnc32)cc1", "result": "90 µM"}
{"compound": "CCSCc1c(Cl)nc2ccc(Cl)cn12", "result": ">100 µM"}
{"compound": "O[C@@H]1[C@H](O)CO[C@H]1n1c(Cl)nc2cc(Cl)c(Cl)cc21", "result": "60 µM"}
{"compound": "O=P1(O)OCC2O[C@@H](n3cnc4c(NO)ncnc43)[C@H](O)C2O1", "result": "≥3.2 µg/mL"}

Repeating the final 3 entries:

compound	result
CCSCc1c(Cl)nc2ccc(Cl)cn12	>100 µM
O[C@@H]1[C@H](O)CO[C@H]1n1c(Cl)nc2cc(Cl)c(Cl)cc21	60 µM
O=P1(O)OCC2O[C@@H](n3cnc4c(NO)ncnc43)[C@H](O)C2O1	≥3.2 µg/mL